Anti-infective test results gathered from many reports (values: NIAID ChemDB through PubChem).

Common to all: target-level tests

An empty or dashed field is not shown. Two numbers with a dash give a range or band. Percent inhibition refers to the dose given; in toxicity tests it is the harm to the cells. ICn is the concentration giving n% inhibition. Rows are shuffled and stem from different studies.

smiles	target	species	strain	dose	read by	read-out	result
C/C=C/C(=O)[C@H](CC)NC(=O)[C@@H](NC(=O)[C@@H](NC(=O)[C@H](CC(C)C)NC(=O)[C@@H](CCC(=O)O)NC(=O)[C@H](CC(=O)O)NC(C)=O)[C@@H](C)CC)C1CCCCC1	HCV NS3 protease	Hepatitis C virus		10 µM		inhibition	96%
COc1ccc(-c2ccc(O[C@@H]3CC(C(=O)NC4(C(=O)O)CC4)N(C(=O)[C@@H](NC(=O)[C@@H](NC(C)=O)C4CCCCC4)C(C)C)C3)cc2)cc1	NS3 protease	Hepatitis C virus				IC50	35 µM
O=C(O)[C@H](Cc1ccccc1)N(Cc1ccc(-c2nccs2)o1)C(=O)c1ccc(Cl)cc1Cl	RNA-dependent RNA polymerase	Hepatitis C virus				IC50	<5 µM
C=Cc1ccc(C(NC(=O)OC(C)(C)C)C(=O)Nc2cccc(C(=O)NS(=O)(=O)c3ccc(C(F)(F)F)cc3)c2)cc1Oc1cc(OC)nc(-c2ccccc2)n1	Nonstructural protein 3/4A	Hepatitis C virus	GT1a		FRET	Ki	0.058 µM
COc1cc(C(=O)N2[C@@H](c3cccs3)[C@H](c3nc(C)no3)C[C@@]2(CC(C)C)C(=O)O)ccc1C(C)(C)C	RNA-dependent RNA polymerase	Hepatitis C virus				IC50	<50 µM
CCOC(=O)c1cnn2c(-c3ccc(F)cc3)cc(-c3ccc(F)cc3)nc12	RNA-dependent RNA polymerase	Hepatitis C virus				IC50	>10 µM
CC[C@H](NC(=O)[C@@H](NC(=O)[C@@H](NC(=O)[C@H](CC(C)C)NC(=O)[C@@H](CCC(=O)O)NC(=O)[C@H](CC(=O)O)NC(C)=O)[C@@H](C)CC)C1CCCCC1)C(O)/C=C/c1ccccc1	HCV NS3 protease	Hepatitis C virus		10 µM		inhibition	8%
Nc1nc2c(ccn2[C@@H]2O[C@H](COP(=O)(O)OP(=O)(O)OP(=O)(O)O)[C@@H](O)[C@@H]2O)c(=O)[nH]1	NS5B delta .21	Hepatitis C virus				IC50	6.6 µM
C=Cc1ccc(C(NC(=O)OC(C)(C)C)C(=O)Nc2ccccc2C(=O)NS(=O)(=O)c2ccc(C(F)(F)F)cc2)cc1Oc1cc(OC)nc(-c2ccccc2)n1	Nonstructural protein 3/4A	Hepatitis C virus	GT1a		FRET	Ki	0.24 µM
Cc1nc([C@@H]2C[C@@](CC(C)C)(C(=O)O)N(C(=O)c3ccc(C(C)(C)C)cc3)[C@H]2c2nccs2)n[nH]1	RNA-dependent RNA polymerase	Hepatitis C virus				IC50	<50 µM
O=C(O)c1cc2nc(-c3ccc(Oc4ccccc4)cc3)cc(-c3ccc(Oc4ccccc4)cc3)n2n1	RNA-dependent RNA polymerase	Hepatitis C virus				IC50	1–10 µM
O=C(O)C(Cc1ccccc1)N(Cc1ccc(-c2ccc(Cl)s2)s1)C(=O)c1ccc(Cl)cc1Cl	RNA-dependent RNA polymerase	Hepatitis C virus				IC50	<5 µM
CC(=O)N[C@H](C(=O)N[C@H](C(=O)N1C[C@H](Oc2ccccc2-c2ccc(C(=O)O)cc2)CC1C(=O)NC1(C(=O)O)CC1)C(C)C)C1CCCCC1	NS3 protease	Hepatitis C virus				IC50	>200 µM
C=Cc1ccc(C(NC(=O)[C@@H](NC(=O)OC(C)(C)C)C(C)(C)C)C(=O)Nc2ccccc2C(=O)NS(=O)(=O)c2ccc(C(F)(F)F)cc2)cc1Oc1cc(OC)nc(-c2ccccc2)n1	Nonstructural protein 3/4A	Hepatitis C virus	GT1a		FRET	Ki	0.045 µM
Cc1cc(NC(=O)c2ccc(C(=O)N3CCN(c4ncccc4NC(C)C)CC3)nc2)no1	Reverse transcriptase	Hepatitis B virus				IC50	0.11 µg/mL
COc1cc(C(=O)N2[C@@H](c3cscn3)[C@@H](c3nc(C)no3)C[C@@]2(CC(C)C)C(=O)O)ccc1C(C)(C)C	RNA-dependent RNA polymerase	Hepatitis C virus				IC50	<50 µM
COc1ccc2c(O[C@@H]3C[C@@H](C(=O)N[C@@]4(C(=O)NS(=O)(=O)C5(CC6CC6)CC5)CC4C4CC4)N(C(=O)[C@@H](NC(=O)OC(C)(C)C)C(C)(C)C)C3)cc(-c3ccccc3)nc2c1	NS3/NS4A protease	Hepatitis C virus	BMS			IC50	<0.05 µM
Nc1nc2c(ncn2[C@@H]2O[C@H](COP(=O)(O)OP(=O)(O)OP(=O)(O)O)[C@@H](O)[C@H]2O)c(=O)[nH]1	NS5B delta .21	Hepatitis C virus				IC50	7.9 µM
CS(=O)(=O)Nc1cnn2c(C3CCCCC3)c(-c3ccc(OCc4ccccc4)cc3)cnc12	RNA-dependent RNA polymerase	Hepatitis C virus				IC50	>10 µM
CCC[C@H](NC(=O)[C@@H]1C[C@@H](Oc2cc(-c3ccccc3)nc3cc(OC)ccc23)C[C@H]1C(=O)N[C@H](C(=O)N[C@@H](C(=O)OC)C1CCCCC1)C(C)C)C(=O)O	NS3 protease	Hepatitis C virus		10 µM		inhibition	37%
Cc1noc([C@H]2C[C@@](CC(C)C)(C(=O)O)N(C(=O)c3ccc(C(C)(C)C)cc3)[C@H]2c2cccnc2)n1	RNA-dependent RNA polymerase	Hepatitis C virus				IC50	<50 µM
CCC[C@H](NC(=O)[C@@H]1C[C@@H](Oc2cc(-c3ccccc3)nc3cc(OC)ccc23)C[C@H]1C(=O)N[C@H](C(=O)N[C@H](C(=O)OC)C1CCCCC1)C(C)C)C(=O)O	NS3 protease	Hepatitis C virus		10 µM		inhibition	100%
Cc1cc(Cl)ccc1C(=O)N(Cc1ccc(-c2cccc(C(F)(F)F)c2)s1)C(Cc1ccccc1)C(=O)O	RNA-dependent RNA polymerase	Hepatitis C virus				IC50	<5 µM
CCOC(=O)c1cnn2c(-c3ccc(Cl)cc3)cc(-c3ccc(Cl)cc3)nc12	RNA-dependent RNA polymerase	Hepatitis C virus				IC50	>10 µM
CC(C)(CO)NC(=O)c1ccc(C(=O)N2CCN(c3ncccc3N)CC2)nc1	Reverse transcriptase	Hepatitis B virus				IC50	0.038 µg/mL
O=S(=O)(Nc1cnn2c(C3CCCCC3)c(-c3ccc(OCc4ccccc4)cc3)cnc12)c1ccc(Cl)cc1	RNA-dependent RNA polymerase	Hepatitis C virus				IC50	>10 µM
CC[C@H](NC(=O)[C@@H](NC(=O)[C@@H](NC(=O)[C@H](CC(C)C)NC(=O)[C@@H](CCC(=O)O)NC(=O)[C@H](CC(=O)O)NC(C)=O)[C@@H](C)CC)C1CCCCC1)C(=O)CCc1ccc(OC)cc1	HCV NS3 protease	Hepatitis C virus		1 µM		inhibition	30%
C=CC1C[C@@]1(NC(=O)[C@@H]1C[C@@H](Oc2cc(-c3ccccc3)nc3cc(OC)ccc23)CN1C(=O)[C@@H](NC(=O)Oc1ccc(C)cc1)C(C)(C)C)C(=O)NS(=O)(=O)C1(Cc2ccccc2)CC1	NS3/NS4A protease	Hepatitis C virus	BMS			IC50	0.05–0.5 µM
CC[C@H](NC(=O)[C@@H]1C[C@@H](Oc2cc(-c3ccccc3)nc3cc(OC)ccc23)C[C@H]1C(=O)N[C@@H](C(=O)N[C@@H](C(=O)OC)C1CCCCC1)C(C)C)C(=O)O	NS3 protease	Hepatitis C virus		10 µM		inhibition	21%
CC(C)Nc1cccnc1N1CCN(C(=O)c2ccc(C(=O)NCCCO)cn2)CC1	Reverse transcriptase	Hepatitis B virus				IC50	0.012 µg/mL
CC(=O)N[C@H](C(=O)N[C@H](C(=O)N1C[C@H](Oc2cccnc2-c2ccsc2)CC1C(=O)NC1(C(=O)O)CC1)C(C)C)C1CCCCC1	NS3 protease	Hepatitis C virus				IC50	>200 µM
C=Cc1ccc(C(NC(=O)OC2CCCC2)C(=O)Nc2ccc(C(=O)NS(=O)(=O)c3ccc(C(F)(F)F)cc3)cc2)cc1Oc1cc(OC)nc(-c2ccccc2)n1	Nonstructural protein 3/4A	Hepatitis C virus	GT1a		FRET	Ki	0.055 µM
O=C(O)[C@H](Cc1ccccc1)N(Cc1ccc(Br)o1)C(=O)c1ccc(Cl)cc1Cl	RNA-dependent RNA polymerase	Hepatitis C virus				IC50	5–20 µM
CC(C)Nc1cccnc1N1CCN(C(=O)c2ccc(C(=O)Nc3ccccn3)cn2)CC1	Reverse transcriptase	Hepatitis B virus				IC50	0.085 µg/mL
Cc1nc([C@H]2C[C@@](CC(C)C)(C(=O)O)N(C(=O)c3ccc(C(C)(C)C)cc3)[C@H]2c2nccs2)ns1	RNA-dependent RNA polymerase	Hepatitis C virus				IC50	<50 µM
C=Cc1ccc(C(NC(C)=O)C(=O)Nc2cccc(C(=O)NS(=O)(=O)c3ccc(C(F)(F)F)cc3)c2)cc1Oc1cc(OC)nc(-c2ccccc2)n1	Nonstructural protein 3/4A	Hepatitis C virus	GT1a		FRET	Ki	0.7 µM
O=C(O)[C@H](Cc1ccccc1)N(CC#Cc1cc2ccccc2o1)C(=O)c1ccc(Cl)cc1Cl	RNA-dependent RNA polymerase	Hepatitis C virus				IC50	<5 µM
CC(=O)N[C@H](C(=O)N[C@H](C(=O)N1C[C@H](Sc2nc3ccccc3s2)CC1C(=O)NC1(C(=O)O)CC1)C(C)C)C1CCCCC1	NS3 protease	Hepatitis C virus				IC50	20 µM
CCOC(=O)c1cnn2c(C3CCCCC3)c(-c3ccc(OC)cc3)cnc12	RNA-dependent RNA polymerase	Hepatitis C virus				IC50	>10 µM
CC(=O)N[C@H](C(=O)N[C@H](C(=O)N1C[C@H](Sc2ccc(Br)cc2)CC1C(=O)NC1(C(=O)O)CC1)C(C)C)C1CCCCC1	NS3 protease	Hepatitis C virus				IC50	40 µM
CO[C@@H]1[C@H](O)[C@@H](COP(=O)(O)OP(=O)(O)OP(=O)(O)O)O[C@H]1n1cnc2c(N)ncnc21	NS5B delta .21	Hepatitis C virus				IC50	4.7 µM
COc1ccc2c(O[C@@H]3C[C@@H](C(=O)O)N(C(=O)OC(C)(C)C)C3)cc(-c3ccccc3)nc2c1	NS3/NS4A protease	Hepatitis C virus	BMS			IC50	<0.05 µM
CC(=O)N[C@H](C(=O)N[C@H](C(=O)N1C[C@H](Oc2ccc(I)cc2)CC1C(=O)NC1(C(=O)O)CC1)C(C)C)C1CCCCC1	NS3 protease	Hepatitis C virus				IC50	10 µM
CCOC(=O)c1ccccc1-c1ccc(CN(C(=O)c2ccc(Cl)cc2Cl)C(Cc2ccccc2)C(=O)O)s1	RNA-dependent RNA polymerase	Hepatitis C virus				IC50	<5 µM
CCNc1cccnc1N1CCN(C(=O)c2ccc(C(=O)NC(C)C)cn2)CC1	Reverse transcriptase	Hepatitis B virus				IC50	0.006 µg/mL
CC(Cc1ccc(O)cc1)(NC(=O)c1cnn2c(C3CCCCC3)c(-c3ccc(F)cc3)cnc12)C(=O)O	RNA-dependent RNA polymerase	Hepatitis C virus				IC50	<1 µM
Nc1ncnc2c1ccn2[C@@H]1O[C@H](COP(=O)(O)OP(=O)(O)OP(=O)(O)O)C[C@H]1O	NS5B delta .21	Hepatitis C virus				IC50	12 µM
C=CCCCS(=O)(=O)NC(=O)c1cccc(NC(=O)C(NC(=O)OC2CCCC2)c2ccc(C=C)c(Oc3cc(OC)nc(-c4ccccc4)n3)c2)c1	Nonstructural protein 3/4A	Hepatitis C virus	GT1a		FRET	Ki	0.13 µM
COc1cc(C(=O)N2[C@@H](c3nccs3)[C@H](c3cc(C)no3)C[C@@]2(CC(C)C)C(=O)O)ccc1C(C)(C)C	RNA-dependent RNA polymerase	Hepatitis C virus				IC50	<50 µM
CCCC(=O)[C@H](CC)NC(=O)[C@@H](NC(=O)[C@@H](NC(=O)[C@H](CC(C)C)NC(=O)[C@@H](CCC(=O)O)NC(=O)[C@H](CC(=O)O)NC(C)=O)[C@@H](C)CC)C1CCCCC1	HCV NS3 protease	Hepatitis C virus		1 µM		inhibition	40%
O=C(O)[C@H](Cc1ccccc1)N(Cc1cc(-c2ccc(Cl)cc2Cl)cs1)C(=O)c1ccc(Cl)cc1Cl	RNA-dependent RNA polymerase	Hepatitis C virus				IC50	<5 µM
O=C(O)c1cc2nc(-c3ccc(C(F)(F)F)cc3)cc(-c3cccc(Cl)c3)n2n1	RNA-dependent RNA polymerase	Hepatitis C virus				IC50	>10 µM
CC[C@H](NC(=O)[C@@H](NC(=O)[C@@H](NC(=O)[C@H](CC(C)C)NC(=O)[C@@H](CCC(=O)O)NC(=O)[C@H](CC(=O)O)NC(C)=O)[C@@H](C)CC)C1CCCCC1)C(=O)CCc1ccccc1	HCV NS3 protease	Hepatitis C virus		1 µM		inhibition	25%
C=C[C@H]1C[C@@]1(NC(=O)[C@@H]1C[C@@H](Oc2cc(-c3ccccc3)nc3cc(OC)ccc23)CN1C(=O)[C@@H](NC(=O)OC(C)(C)C)C(C)(C)C)C(=O)NS(=O)(=O)C1(Cc2ccc(F)cc2)CC1	NS3/NS4A protease	Hepatitis C virus	BMS			IC50	<0.05 µM
O=C(O)c1ccc(-c2ccc(CN(C(=O)c3ccc(Cl)cc3Cl)[C@@H](Cc3ccccc3)C(=O)O)s2)cc1	RNA-dependent RNA polymerase	Hepatitis C virus				IC50	<5 µM
CC(C)C[C@@]1(C(=O)O)C[C@@H](c2nnco2)[C@H](c2nccs2)N1C(=O)c1ccc(C(C)(C)C)cc1	RNA-dependent RNA polymerase	Hepatitis C virus				IC50	<50 µM
O=C(O)c1ccc(-c2ccc(CN(C(=O)c3ccc(Cl)cc3Cl)[C@@H](Cc3ccccc3)C(=O)O)o2)cc1	RNA-dependent RNA polymerase	Hepatitis C virus				IC50	<5 µM
CC(C)C[C@@]1(C(=O)O)C[C@@H](c2nc(Br)ns2)[C@H](c2nccs2)N1C(=O)c1ccc(C(C)(C)C)cc1	RNA-dependent RNA polymerase	Hepatitis C virus				IC50	<50 µM

For reference, 4 entries again:

CC(C)C[C@@]1(C(=O)O)C[C@@H](c2nnco2)[C@H](c2nccs2)N1C(=O)c1ccc(C(C)(C)C)cc1 ; target: RNA-dependent RNA polymerase ; species: Hepatitis C virus ; read-out: IC50 ; result: <50 µM
O=C(O)c1ccc(-c2ccc(CN(C(=O)c3ccc(Cl)cc3Cl)[C@@H](Cc3ccccc3)C(=O)O)o2)cc1 ; target: RNA-dependent RNA polymerase ; species: Hepatitis C virus ; read-out: IC50 ; result: <5 µM
Nc1nc2c(ncn2[C@@H]2O[C@H](COP(=O)(O)OP(=O)(O)OP(=O)(O)O)[C@@H](O)[C@H]2O)c(=O)[nH]1 ; target: NS5B delta .21 ; species: Hepatitis C virus ; read-out: IC50 ; result: 7.9 µM
Cc1cc(Cl)ccc1C(=O)N(Cc1ccc(-c2cccc(C(F)(F)F)c2)s1)C(Cc1ccccc1)C(=O)O ; target: RNA-dependent RNA polymerase ; species: Hepatitis C virus ; read-out: IC50 ; result: <5 µM